For some assays here: Construct, isoform or probe ends are uncertain for at least one entry. For some assays here: At least one verdict rests on a figure or table, not on a statement of the authors.
Key:
[1] = test system: FarR-MBP (Neisseria meningitidis M7); assay: DNase I footprinting; conditions: three sites incl. -10 promoter and TAAA repeat regions, data not shown; DNase I: protein with DNA 15 min at 37 C; recombinant protein; residues 1-146; label: 32P 5' end; probe letters rebuilt from the primers and the genome
[2] = test system: FarR-MBP (Neisseria meningitidis M7); assay: competition with a labelled probe; conditions: unlabeled nadA 25-100x vs labeled nadA, 0.5 ug FarR-MBP; EMSA: 10 mM Tris-HCl pH 7.5, 0.5 mM DTT, 0.5 mM EDTA, 1 mM MgCl2, 50 mM NaCl, 0.05 ug/mL poly(dI-dC), 30 uL, room temperature 30 min; 6% PAGE at 4 C; recombinant protein; residues 1-146; label: 32P 5' end; probe letters rebuilt from the primers and the genome
[3] = molecular target: MtrR-MBP (Neisseria meningitidis M7) (UniProt Q6RV06); assay: competition with a labelled probe; conditions: unlabeled nadA effective at 25x vs labeled nadA, 1.0 ug MtrR-MBP; EMSA: 10 mM Tris-HCl pH 7.5, 0.5 mM DTT, 0.5 mM EDTA, 1 mM MgCl2, 50 mM NaCl, 0.05 ug/mL poly(dI-dC), 30 uL, room temperature 30 min; 6% PAGE at 4 C; recombinant protein; residues 1-210; label: 32P 5' end; probe letters rebuilt from the primers and the genome
[4] = test system: FarR-MBP (Neisseria meningitidis M7); assay: EMSA; conditions: at least three complexes; EMSA: 10 mM Tris-HCl pH 7.5, 0.5 mM DTT, 0.5 mM EDTA, 1 mM MgCl2, 50 mM NaCl, 0.05 ug/mL poly(dI-dC), 30 uL, room temperature 30 min; 6% PAGE at 4 C; recombinant protein; residues 1-146; label: 32P 5' end; probe letters rebuilt from the primers and the genome
[5] = molecular target: MtrR-MBP (Neisseria meningitidis M7) (UniProt Q6RV06); assay: EMSA; conditions: EMSA: 10 mM Tris-HCl pH 7.5, 0.5 mM DTT, 0.5 mM EDTA, 1 mM MgCl2, 50 mM NaCl, 0.05 ug/mL poly(dI-dC), 30 uL, room temperature 30 min; 6% PAGE at 4 C; recombinant protein; residues 1-210; label: 32P 5' end; probe letters rebuilt from the primers and the genome

Measured: binding result

ATGCATGCTCATTACCTTTGTGAGTGGATAAAAAATGGGGCGGAAATCTTTTGTAAGTATTTTATCCCCACCAAGTTTGTTTACATATTAAAGTATATATGAAAGGAGGCATATATACAATACATTGTCGCAATTTATTTATTTATTTATTTATTTATTTATTTATTTATTTATTTATTTATTTATTTATTTAATTCTTGCAGTTAGGTAGTTCGGCATTAATATCTGTTAATATGTGCATATTATGCTGATGTCAATTCTGCCGGTGTCGTGTCTTAATTTTGTCAGGATATGGGTTGCCGTCTGAATGTTCAGACGGCCTTTTTGTCGGATTTAGATATGGTGGATAACCAATTTTTTGCCTTCGTAATCGAGGACGTCGAC (double strand) [nadA promoter]
binds: [1] | [2] | [3] | [4] | [5]

Reference: paper PMC3568044
